PubChem BioAssay AID624099, ICCB-Longwood, 2012
Test: 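Knock-downs relieving repression by E2 of an HPV18 LCR luciferase reporter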 (primary screen). Cell system: human C33A cervical carcinoma cells (HPV-negative) stably expressing BPV1 E2 and an HPV18 LCR luciferase reporter. Reagent: siRNA pool against human genes, 40 nM. Time to read-out: 72 h. Measured: 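Per-well luciferase luminescence, z-scored on each plate against the plate mean and SD with control wells left out, then averaged across three replicate plates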. Direction: mean z-score and z-score: higher = stronger reporter signal, weaker E2 silencing. Active means: 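Mean z ≥ 2 together with z ≥ 2 in two or more of the three replicates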.
The whole screen tested about 21,000 reagents; shown is an unselected part. 497 of all reagents (2.4%) count as active. 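Higher z means weaker E2 silencing; only reporter increases were scored, and knock-downs that hurt cell survival may mask genuine repressor factors.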

gene knocked down	mean z-score	z-score, replicate A	z-score, replicate B	z-score, replicate C	call
OR4F21 (olfactory receptor family 4 subfamily F member 21)	-0.68	-1.06	-0.38	-0.6	inactive
HOTAIR (HOX transcript antisense RNA)	2.43	2.09	2.81	2.38	active
CRYBB3 (crystallin beta B3)	-0.03	0.37	-0.29	-0.17	inactive
PIK3R5 (phosphoinositide-3-kinase regulatory subunit 5)	-2.8	-2.77	-2.7	-2.94	inactive
SPATA25 (spermatogenesis associated 25)	-1.28	-1.44	-1.14	-1.25	inactive
LMNA (lamin A/C)	0.14	0.39	0.02	0.01	inactive
IFNL2 (interferon lambda 2)	0.74	0.81	0.64	0.77	inactive
TSPAN33 (tetraspanin 33)	0.06	-0.04	0	0.22	inactive
FRMD6 (FERM domain containing 6)	-0.07	0.23	-0.06	-0.38	inactive
RUFY1 (RUN and FYVE domain containing 1)	1.02	1.12	0.7	1.24	inactive
PALD1 (phosphatase domain containing paladin 1)	-1.28	-1.32	-1.19	-1.33	inactive
ALKAL2 (ALK and LTK ligand 2)	-0.37	-0.36	-0.31	-0.43	inactive
NUDT1 (nudix hydrolase 1)	1.85	2.32	1.57	1.65	inactive
SHISAL1 (shisa like 1)	-0.83	-1.29	-0.52	-0.7	inactive
SOST (sclerostin)	-0.41	-0.45	-0.48	-0.29	inactive
ZNF138 (zinc finger protein 138)	-0.6	-0.51	-0.65	-0.63	inactive
ERCC6L2-AS1 (ERCC6L2 antisense RNA 1)	-1.14	-1.31	-1.07	-1.03	inactive
ABHD15 (abhydrolase domain containing 15)	-0.86	-0.8	-0.77	-1	inactive
KTN1 (kinectin 1)	1.64	1.61	1.52	1.77	inactive
RABGAP1 (RAB GTPase activating protein 1)	1.39	1.57	1.15	1.44	inactive
SPINK4 (serine peptidase inhibitor Kazal type 4)	1.16	0.5	1.4	1.58	inactive
OR1J2 (olfactory receptor family 1 subfamily J member 2)	0.5	0.43	0.3	0.77	inactive

Part of the list above, set out differently.
gene knocked down,mean z-score,"z-score, replicate A","z-score, replicate B","z-score, replicate C",call
LMNA (lamin A/C),0.14,0.39,0.02,0.01,inactive
IFNL2 (interferon lambda 2),0.74,0.81,0.64,0.77,inactive
TSPAN33 (tetraspanin 33),0.06,-0.04,0,0.22,inactive
FRMD6 (FERM domain containing 6),-0.07,0.23,-0.06,-0.38,inactive
RUFY1 (RUN and FYVE domain containing 1),1.02,1.12,0.7,1.24,inactive
PALD1 (phosphatase domain containing paladin 1),-1.28,-1.32,-1.19,-1.33,inactive
ALKAL2 (ALK and LTK ligand 2),-0.37,-0.36,-0.31,-0.43,inactive
NUDT1 (nudix hydrolase 1),1.85,2.32,1.57,1.65,inactive
SHISAL1 (shisa like 1),-0.83,-1.29,-0.52,-0.7,inactive
SOST (sclerostin),-0.41,-0.45,-0.48,-0.29,inactive

The listing continues.
gene knocked down	mean z-score	z-score, replicate A	z-score, replicate B	z-score, replicate C	call
RALGPS2 (Ral GEF with PH domain and SH3 binding motif 2)	-0.06	0.04	-0.17	-0.05	inactive
ZBTB44 (zinc finger and BTB domain containing 44)	-1.1	-1.16	-1.29	-0.86	inactive
RASGRP4 (RAS guanyl releasing protein 4)	-0.51	-0.55	-0.34	-0.66	inactive
CDC42 (cell division cycle 42)	-0.32	-0.33	-0.3	-0.32	inactive
GAPVD1 (GTPase activating protein and VPS9 domains 1)	-0.53	-0.5	-0.63	-0.46	inactive
CISD3 (CDGSH iron sulfur domain 3)	1.81	2.12	1.78	1.52	inactive
PFDN6 (prefoldin subunit 6)	1.59	1.39	1.64	1.75	inactive
NR1H3 (nuclear receptor subfamily 1 group H member 3)	-0.38	-0.55	-0.2	-0.41	inactive
LOC338734 (retired record)	-1.6	-2.11	-1.66	-1.02	inactive
LINC01122 (long independently transcribed non-coding RNA 1122)	1.94	2.79	1.61	1.42	inactive
PCDHB8 (protocadherin beta 8)	0.67	0.27	1.09	0.64	inactive
TSPAN19 (tetraspanin 19)	0.07	-0.09	0.2	0.09	inactive
IFT27 (intraflagellar transport 27)	0.59	0.7	0.68	0.38	inactive
ARL10 (ARF like GTPase 10)	0.11	0.09	0.21	0.02	inactive
SCARF2 (scavenger receptor class F member 2)	-0.24	-0.27	-0.07	-0.37	inactive
UGT2A1 (UDP glucuronosyltransferase family 2 member A1 complex locus)	0.88	0.6	1.09	0.95	inactive
MSI1 (musashi RNA binding protein 1)	0.47	0.52	0.21	0.7	inactive
RBAK (RB associated KRAB zinc finger)	1.29	1.13	1.15	1.61	inactive
MRPS23 (mitochondrial ribosomal protein S23)	0.28	0.37	0.22	0.24	inactive
UBE2J1 (ubiquitin conjugating enzyme E2 J1)	-0.73	-0.4	-0.94	-0.84	inactive
LOC339022 (retired record)	0.08	0.09	0.69	-0.54	inactive
LINC01226 (long independently transcribed non-coding RNA 1226)	-0.75	-0.9	-0.73	-0.62	inactive
LOC388353 (retired record)	-0.06	-0.36	0.11	0.06	inactive
RNF182 (ring finger protein 182)	-1.03	-1.1	-1.08	-0.9	inactive
PRPF40A (pre-mRNA processing factor 40A)	0.91	1.2	0.84	0.68	inactive
SUMO2 (small ubiquitin like modifier 2)	0.74	0.8	0.75	0.67	inactive
GPSM2 (G protein signaling modulator 2)	0.79	0.58	0.61	1.16	inactive
CARNMT1 (carnosine N-methyltransferase 1)	0.67	0.76	0.69	0.58	inactive
GNPNAT1 (glucosamine-phosphate N-acetyltransferase 1)	-0.42	-0.44	-0.27	-0.54	inactive
RTN4IP1 (reticulon 4 interacting protein 1)	-1.06	-1.01	-0.96	-1.23	inactive
PRR4 (proline rich 4)	1.51	1.56	1.6	1.38	inactive
ZNF133 (zinc finger protein 133)	-0.21	-0.07	-0.32	-0.24	inactive
DECR1 (2,4-dienoyl-CoA reductase 1)	0	-0.15	0.14	0.02	inactive
SLC25A42	-0.49	-0.68	-0.7	-0.07	inactive
BUB3 (BUB3 mitotic checkpoint protein)	0.94	0.59	1.33	0.9	inactive
